Measured values published in US7148243B2, “Antivirals” (Medivir AB, priority 1998, dated 2006).

Test system: HIV wild type
Type: cell-based
Conditions: for SI (calculated therapeutic index): dose producing 50% toxicity in HIV-free cells divided by the ED50, initial data; for SI (calculated therapeutic index) 50% serum: 50% human serum, 50% toxicity dose in HIV-free cells divided by the ED50

Compound: CCC(=O)c1ccc(F)c(C2CC2NC(=O)Nc2ccc(C#N)cn2)c1O (racemic) [Example 5, (±)N-[cis-2-(2-(6-fluoro-2-hydroxy-3-propionylphenyl)-cyclopropyl]-N′-(5-cyanopyrid-2-yl)-urea]
- SI (calculated therapeutic index): >41 600

Compound: CCC(=O)c1ccc(F)c(C2CC2NC(=O)Nc2ccc(Cl)cn2)c1O (racemic) [Prior art, (+/−)—N-(cis-2-(6-fluoro-2-hydroxy-3-propionylphenyl)-cyclopropyl)-N′-(5-chloropyridyl-2-yl)-urea, reference compound]
- SI (calculated therapeutic index) 50% serum: 800
- SI (calculated therapeutic index): 5 900

Compound: CCC(=O)c1ccc(F)c([C@@H]2C[C@@H]2NC(=O)Nc2ccc(C#N)cn2)c1O (stereo in doubt) [Example 8, (1 S,2S)-N-(cis-2-(6-fluoro-2-hydroxy-3-propionoylphenyl)-cyclopropyl)-N′-(5-cyanopyrid-2-yl)-urea]
- SI (calculated therapeutic index) 50% serum: 4 285
- SI (calculated therapeutic index): 87 000

Compound: CCC(=O)c1ccc(F)c([C@H]2C[C@H]2NC(=O)Nc2ccc(C#N)cn2)c1O (stereo in doubt) [Example 6, (1R,2R)-N-(cis-2-(6-fluoro-2-hydroxy-3-propionylphenyl)-cyclopropyl)-N′-(5-cyanopyridy-2-yl)-urea]
- SI (calculated therapeutic index) 50% serum: 8 830
- SI (calculated therapeutic index): 22 500
